# Tests used:
# Details in all cases: Table S1; recombinant enzyme, 30 °C
# [1] = system: MlrA; experiment: Degradation by purified recombinant MlrA
# [2] = system: MlrB; experiment: Degradation by purified recombinant MlrB
# [3] = system: MlrC; experiment: Degradation by purified recombinant MlrC
smiles,measurement,setting,value
C=C(C(=O)N[C@H](C)C(=O)O)N(C)C(=O)CC[C@@H](NC(=O)[C@@H](C)[C@@H](N)/C=C/C(C)=C/[C@H](C)[C@H](Cc1ccccc1)OC)C(=O)O,Degrading ability of MlrA,[1],-
same,Degrading ability of MlrB,[2],-
same,Degrading ability of MlrC,[3],+

# Source: publication PMC12474180 (Toxins, 2025)
